A mixed list of measured activities; the numbers were collected in NIAID ChemDB.

Shared fields: growth or infection tests; organism: Respiratory syncytial virus; cell line: HeLa; read-out: EC50

An empty or dashed field is not shown. Lines come from different laboratories, so protocols vary. ECn: concentration that inhibits the pathogen or its effect by n%.

SMILES | strain | method | result
CCCOc1ncn(-c2ccc(NC(=S)Nc3cccc(O)c3)cc2)n1 | LONG | cytopathic effect | 40 µg/mL
CNS(=O)(=O)CCCN1CCC(Nc2nc3c(C)cc(C)cc3n2Cc2nc(C)ccc2O)CC1 | - | cytopathic effect | 0.016 µM
O=c1ccn([C@@H]2C[C@H](CO)C[C@H]2CO)c(=O)[nH]1 | - | - | >100 µg/mL
CCOC(=O)c1ccc(OCCCN2CCC(Nc3nc4c(C)cccc4n3Cc3nc(C)ccc3O)CC2)cc1 | - | cytopathic effect | 0.501 µM
O=[N+]([O-])c1ccc2c(c1)CSSC2 | LONG | cytopathic effect | 11.4 µM
O=c1[nH]cnc2c1ncn2C1C[C@H](CO)[C@@H](CO)C1 | - | - | >100 µg/mL
CCOc1ncn(-c2ccc(NC(=S)NC34CC5CC(CC(C5)C3)C4)cc2)n1 | LONG | cytopathic effect | 8 µg/mL
COC(=O)[C@]1(C)CCC[C@]2(C)c3cc(Br)c4[nH]ccc4c3CCC12 | - | plaque count | >4 µg/mL
Cc1ccc(O)c(Cn2c(NC3CCN(CC4(O)CCCCC4)CC3)nc3c(C)cccc32)n1 | - | cytopathic effect | 1.995 µM
Nc1ncnc2c1ccn2[C@@H]1C[C@H](O)[C@@H](O)[C@H]1O | LONG | - | >200 µg/mL
c1ccc2c(c1)CSSC2 | Clinical isolate NS-100 (A) | cytopathic effect | 8.9 µM
Cc1cn([C@@H]2OC[C@H](CO)[C@H]2N=[N+]=[N-])c(=O)[nH]c1=O | - | cytopathic effect | >80 µg/mL
C=C(N=CC)c1nc(-c2ccc(OC)cc2)n([C@@H]2O[C@H](CO)[C@@H](O)[C@H]2O)n1 | LONG | cytopathic effect | 100 µg/mL
O=c1[nH]c(=O)n([C@@H]2C[C@H](CO)C[C@H]2CO)cc1I | - | - | >100 µg/mL
CC1(C)[C@@H](CCO)C[C@H]1n1nnc2c(N)ncnc21 | - | cytopathic effect | >400 µg/mL
CCOc1ncn(-c2ccc(NC(=S)Nc3cccc(O)c3)cc2)n1 | LONG | cytopathic effect | 8 µg/mL
Cc1ccc(O)c(Cn2c(NC3CCN(CC(=O)C(C)C)CC3)nc3c(C)cccc32)n1 | - | cytopathic effect | 0.794 µM
C=C(N=CC)c1nc(-c2ccccc2)n(C2O[C@H](CO)[C@@H](O)[C@H](O)[C@H]2O)n1 | LONG | cytopathic effect | 70 µg/mL
CC1(CO)CCC(Cc2nc3ncnc(N)c3[nH]2)C1(C)C | - | cytopathic effect | >40 µg/mL
COC(=O)[C@]1(C)CCC[C@]2(C)c3ccc4[nH]c(C)nc4c3CCC12 | - | plaque count | >4 µg/mL
Cc1nn2c(-c3cn(-c4ccccc4)nc3-c3ccccc3)nnc2s1 | - | cytopathic effect | >16 µg/mL
Fc1ccc2c(c1)CSSC2 | LONG | cytopathic effect | 223.3 µM
OC[C@H]1O[C@@H](c2cc(/C=C/Br)c(F)cc2F)C[C@@H]1O | - | cytopathic effect | >80 µg/mL
Nc1nc2c(ncn2[C@H]2OC[C@@H](CO)C2O)c(=O)[nH]1 | - | cytopathic effect | >80 µg/mL
CN(C)C(=O)COC(=O)Cc1ccc(OC(=O)c2ccc(N=C(N)N)cc2)cc1.COS(=O)(=O)O | LONG | cytopathic effect | >500 µg/mL
Nn1c(-c2cn(-c3ccccc3)nc2-c2ccccc2)n[nH]c1=S | - | cytopathic effect | >16 µg/mL
CC1(C)[C@@H](CCO)C[C@H]1n1cnc2c(N)ncnc21 | - | cytopathic effect | >400 µg/mL
CCOC(=O)C1Sc2nnc(-c3cn(-c4ccccc4)nc3-c3ccccc3)n2NC1=O | - | cytopathic effect | >80 µg/mL
Nc1ccn([C@@H]2OC[C@H](CO)[C@H]2O)c(=O)n1 | - | cytopathic effect | >80 µg/mL
Cc1cc(C)c2nc(NC3CCN(CCS(N)(=O)=O)CC3)n(Cc3nc(C)ccc3O)c2c1 | - | cytopathic effect | 0.003 µM
CCOc1ncn(-c2ccc(NC(=S)Nc3ncccn3)cc2)n1 | LONG | cytopathic effect | >4 µg/mL
CC1(C)[C@@H](CCO)C[C@H]1n1cnc2c(=O)[nH]cnc21 | - | cytopathic effect | >400 µg/mL
OC[C@H]1O[C@H](c2cc(Cl)c(F)cc2F)C[C@@H]1O | - | cytopathic effect | >400 µg/mL
O=C(NC1CC1)c1cc2c(s1)-c1ccccc1N(C(=O)c1ccc(NC(=O)c3ccccc3-c3ccccc3)cc1)CC2 | LONG | plaque count | 0.2 µM
Nn1c(SCC(=O)O)nnc1-c1cn(-c2ccccc2)nc1-c1ccccc1 | - | cytopathic effect | >80 µg/mL
CC1(CO)CCC(Cn2nnc3c(Cl)ncnc32)C1(C)C | - | cytopathic effect | >40 µg/mL
CCCOc1ncn(-c2ccc(NC(=S)Nc3ncccn3)cc2)n1 | LONG | cytopathic effect | 20 µg/mL
Cc1cc(NCCCCCCCCNc2cc(C)nc3cc(N(C)C)ccc23)c2ccc(N(C)C)cc2n1 | LONG | cytopathic effect | >500 µg/mL
COC(=O)[C@]1(C)CCC[C@]2(C)c3ccc4[nH]c(C(F)(F)F)nc4c3CCC12 | - | plaque count | >4 µg/mL
CC=NC(=N)c1nc(-c2cccc(C)c2)n(COCCO)n1 | LONG | cytopathic effect | >100 µg/mL
O=C(Nn1c(-c2cn(-c3ccccc3)nc2-c2ccccc2)n[nH]c1=S)c1ccccc1 | - | cytopathic effect | >16 µg/mL
C1=CCC2(CC1)COC(c1ccco1)OC2 | LONG | cytopathic effect | >500 µg/mL
C=C(N=CC)c1nc(-c2cccc(C)c2)n(C2O[C@H](CO)[C@@H](O)[C@H](O)[C@H]2O)n1 | LONG | cytopathic effect | 100 µg/mL

2 of the rows above, restated:

SMILES,strain,method,result
CCOc1ncn(-c2ccc(NC(=S)Nc3ncccn3)cc2)n1,LONG,cytopathic effect,>4 µg/mL
COC(=O)[C@]1(C)CCC[C@]2(C)c3cc(Br)c4[nH]ccc4c3CCC12,-,plaque count,>4 µg/mL